# Mutational tolerance of the Zika virus NS2B-NS3 protease

Data from the supplement of Ni et al. 2025, doi:10.1038/s41467-025-63602-z.

The scanned region of Zika virus MR766 is shown below (positions 1-308): NS2B is 2-131, NS3 begins at position 132.
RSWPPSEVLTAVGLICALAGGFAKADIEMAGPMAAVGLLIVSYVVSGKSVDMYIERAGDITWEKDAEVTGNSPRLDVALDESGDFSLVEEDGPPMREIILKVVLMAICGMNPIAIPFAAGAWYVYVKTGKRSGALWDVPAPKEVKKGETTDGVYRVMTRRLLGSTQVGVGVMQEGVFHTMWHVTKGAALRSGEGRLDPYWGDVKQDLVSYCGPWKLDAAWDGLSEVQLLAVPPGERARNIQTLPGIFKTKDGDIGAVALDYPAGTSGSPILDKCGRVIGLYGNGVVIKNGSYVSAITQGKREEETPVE

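Libraries of single mutants were passaged as virus pools on Huh-7.5 cells. Sequencing of three replicate libraries (two for positions 207-308) was averaged into one effect per change.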

Scale: log2 effect, wild type = 0; the lower, the more harmful to the virus.
A change reads original residue, position, new residue.
All changes here are to phenylalanine.
Position 1 still belongs to NS2A. In the paper, -1 or higher counts as tolerated.

* G47F -> -4.99
* K48F -> -5.64
* S49F -> -5.41
* V50F -> -6.05
* D51F -> -5.32
* M52F -> -1.02
* Y53F -> -1.63
* I54F -> -5.58
* E55F -> -6.42
* R56F -> -1.23
* A57F -> -5.51
* G58F -> -5.93
* D59F -> -5.52
* I60F -> -4.77
* T61F -> -0.67
* W62F -> -5.97
* E63F -> -2.48
* K64F -> -0.64
* D65F -> -3.66
* A66F -> -6.32
* E67F -> -4.48
* V68F -> -2.91
* T69F -> -6.35
* G70F -> -6.22
* N71F -> -6.05
* S72F -> -6.01
* P73F -> -3.40
* R74F -> -5.60
* L75F -> -4.67
* D76F -> -0.48
* V77F -> -6.36
* A78F -> 0.43
* L79F -> -5.94
* D80F -> -5.83
* E81F -> -6.00
* S82F -> -2.08
* G83F -> -5.93
* D84F -> -5.82
* S86F -> -2.07
* L87F -> -2.76
* V88F -> -5.20
* E89F -> -2.54
* E90F -> -0.36
* D91F -> -2.88
* G92F -> -2.24
* P93F -> -2.77
* P94F -> -2.40
* M95F -> -0.74
* R96F -> -4.50
* E97F -> -3.71

2 of these entries, quoted again:

- I54F -> -5.58
- K48F -> -5.64

Positions 1-103, 104-206 and 207-308 were made and measured as separate libraries.
Six mutants with high scores were retested singly and none clearly outgrew wild type, so positive values are not proof of better growth.